According to US20230364057A1, “BACTERIAL DNA GYRASE INHIBITORS AND METHODS OF USE THEREOF” (THE FLORIDA INTERNATIONAL UNIVERSITY BOARD OF TRUSTEES, priority 2022, published 2023):

What follows are compounds tested on HepG2 cells (assay: not given). Conditions: SI=IC50(HepG2 toxicity)/MIC, Mab; minimum SI.
In the case of C[n+]1c(-c2ccc(C=NNC(=O)c3ccc(C(=O)NN=Cc4ccc(-c5cn6ccccc6[n+]5C)cc4)cc3)cc2)cn2ccccc21 [Compound 229], the “SI Mab” value was > 18.5.

Same assay, conditions: SI=IC50(HepG2 toxicity)/MIC, Mtb; minimum SI
With C[n+]1c(-c2ccc(C=NNC(=O)c3ccc(C(=O)NN=Cc4ccc(-c5cn6ccccc6[n+]5C)cc4)cc3)cc2)cn2ccccc21 [Compound 229] the “SI Mtb” value was > 28.

What follows are compounds tested on DNA (assay: DNA intercalation / DNA binding). Conditions: not given.
CCOC(=O)c1cc2c(=Cc3ccc(N(C)C)cc3)c3ccccc3n2[n+]1C.O=S(=O)([O-])C(F)(F)F [Compound 239] was tested, and the DNA intercalator was “DNA intercalators”. CN(C)CCNC(=O)c1cccc2nc3cccc(F)c3nc12.Cl [Compound 241] was tested, and the DNA intercalator was “DNA intercalators”. COc1cccc2nc3c(C(=O)NCCN(C)C)cccc3cc12.Cl [Compound 240] was tested, and the DNA intercalator was “DNA intercalators”. For CN1/C(=C/c2cc[n+](C)c3ccccc23)Sc2ccccc21.Cc1ccc(S(=O)(=O)[O-])cc1 [Compound 248], the DNA intercalator was “DNA intercalators”. CN(C)c1ccc(/C=c2\c3ccccc3n3c2cc(-c2ccccc2)[n+]3C)cc1 [Compound 236] was tested, and the DNA intercalator was “DNA intercalator”. CCOc1ccc2nc3cc(N)ccc3c(N)c2c1 [Compound 257] was tested, and the DNA intercalator was “DNA intercalators”. With Brc1ccc2c(c1)-c1ccccc1C1=NCCN12 [Compound 217] the DNA intercalator was “DNA intercalators”. With COc1ccc2c(c1)/c(=C\c1ccc(N(C)C)cc1)c1cc(-c3ccccc3)[n+](C)n12.O=S(=O)([O-])C(F)(F)F [Compound 237] the DNA intercalator was “DNA intercalators”. With CC1=NN(c2nc(N)nc(/C(C#N)=C\c3ccc([N+](=O)[O-])o3)n2)C(C)(C)C1 [Compound 238] the DNA intercalator was “DNA intercalators”. Nc1c2ccccc2nc2ccccc12 [Compound 247] was tested, and the DNA intercalator was “DNA intercalators”. Nc1ccc2cc3ccc(N)cc3nc2c1 [Compound 246] was tested, and the DNA intercalator was “DNA intercalators”. With C[n+]1c(-c2ccc(C=NNC(=O)c3ccc(C(=O)NN=Cc4ccc(-c5cn6ccccc6[n+]5C)cc4)cc3)cc2)cn2ccccc21 [Compound 229] the “binding to DNA” value was “does not bind to DNA tightly”. In the case of CN(C)c1ccc2cc3ccc(N(C)C)cc3nc2c1 [Compound 249], the DNA intercalator was “DNA intercalators”.
